Results of unrelated studies side by side (data: NIAID ChemDB).

Common to all: tests in culture; species: Herpes simplex virus 1; cells: E6SM; measure: EC50

ECn is the concentration giving n% inhibition of infection, replication or growth.

| SMILES | strain | method | value |
|---|---|---|---|
| CC1(CO)CCC(Cn2nnc3c(Cl)ncnc32)C1(C)C | KOS | cytopathic effect | >200 µg/mL |
| CC(=O)OCCOCN1C(C)=CC(N)=[N+](c2ccccc2)S1(=O)=O | F |  | >400 µg/mL |
| CO[C@H](CO)[C@@H](O)CCn1cc(C)c(=O)[nH]c1=O | VMW1837 (TK-) | cytopathic effect | >400 µg/mL |
| CC1(C)[C@@H](CO)CC[C@@]1(C)Cn1nnc2c(N)ncnc21 | KOS | cytopathic effect | >400 µg/mL |
| CC=NC(=N)c1nc(-c2ccc(C)cc2)n(C/C=C/c2ccccc2)n1 | VMW 1837 | cytopathic effect | >4 µg/mL |
| CC1(C)[C@@H](CO)CC[C@@]1(C)Cn1nnc2c(Cl)ncnc21 | KOS | cytopathic effect | >400 µg/mL |
| C=Cc1cc([C@H]2C[C@H](O)[C@@H](CO)O2)c(F)cc1F | VMW1837 (TK-) | cytopathic effect | >400 µg/mL |
| CSc1ncnc2c1cnn2Cc1cnnn1CCCCO | B2006 (TK-) |  | >400 µg/mL |
| CC1(C)[C@@H](CCO)C[C@H]1n1cnc2c(=O)[nH]cnc21 | TK-/VMW 1837 | cytopathic effect | >400 µg/mL |
| CC(=O)OCCOCN1C(N)=CC(N)=NS1(=O)=O | B206 (TK-) |  | >400 µg/mL |
| C=C(N=CC)c1nc(-c2ccc(C)cc2)n([C@@H]2O[C@H](CO)[C@@H](O)[C@H]2O)n1 | KOS | cytopathic effect | >40 µg/mL |
| CC1(C)[C@@H](CCO)C[C@H]1n1nnc2c(N)ncnc21 | TK-/B2006 | cytopathic effect | 70 µg/mL |
| OC[C@H]1O[C@@H](c2cc(/C=C/I)c(F)cc2F)C[C@@H]1O | KOS ACV-R (TK-) | cytopathic effect | >400 µg/mL |
| CNc1ncnc2c1cnn2Cc1cn(CCCCO)nn1 | B2006 (TK-) |  | >400 µg/mL |
| Nc1nc(F)nc2c1ncn2[C@@H]1C=C(CO)[C@@H](O)[C@H]1O | KOS | cytopathic effect | ≥40 µg/mL |
| OC[C@H]1O[C@@H](c2cc(Cl)c(F)cc2F)C[C@@H]1O | VMW 1837 | cytopathic effect | >400 µg/mL |
| CO[C@H](CO)[C@@H](O)CCn1cnc2c(=O)[nH]c(N)nc21 | KOS | cytopathic effect | >400 µg/mL |
| Cc1cc([C@H]2C[C@H](O)[C@@H](CO)O2)c(F)cc1Cl | VMW 1837 | cytopathic effect | >400 µg/mL |
| C=C(N=CC)c1nc(-c2cccc(C)c2)n([C@@H]2O[C@H](CO)[C@@H](O)[C@H]2O)n1 | KOS | cytopathic effect | >200 µg/mL |
| O=C(CC1CCCCC1)N(O)c1ccccc1 | KOS | cytopathic effect | >80 µg/mL |
| CC(=O)OCCOCN1C(=N)/C(=C(\C)O)C(N)=NS1(=O)=O | McIntyre |  | >400 µg/mL |
| OC[C@H]1O[C@H](c2cc(Cl)c(F)cc2F)C[C@@H]1O | McIntyre | cytopathic effect | >400 µg/mL |
| N#CC1=CN(COCCO)S(=O)(=O)N=C1N | F |  | >400 µg/mL |
| Cc1cc([C@H]2C[C@H](O)[C@@H](CO)O2)c(Cl)cc1F | VMW 1837 | cytopathic effect | >400 µg/mL |
| CC(=O)OC[C@H]1O[C@@H](c2ccccc2)C[C@@H]1OC(C)=O | KOS | cytopathic effect | >400 µg/mL |
| O=C(C1CC1)N(O)c1ccc(Cl)cc1 | KOS | cytopathic effect | >80 µg/mL |
| CC=NC(=N)c1nc(-c2ccccc2)n(C/C=C/c2ccccc2)n1 | VMW 1837 | cytopathic effect | >4 µg/mL |
| CC1(C)[C@@H](CCO)C[C@H]1n1cnc2c(N)nc(N)nc21 | TK-/VMW 1837 | cytopathic effect | >400 µg/mL |
| OC[C@H]1O[C@@H](c2cc(C(O)C(I)I)c(F)cc2F)C[C@@H]1O | VMW 1837 | cytopathic effect | >80 µg/mL |
| OCCCCn1cc(Cn2ncc3c(NCc4ccccc4)ncnc32)nn1 | B2006 (TK-) |  | >400 µg/mL |
| O=c1c2ncn(COC(CO)CO)c2nc2[nH]c(-c3ccccc3)cn12 | VMW1837 (TK-) | cytopathic effect | 0.5 µg/mL |
| N#Cc1cc([C@H]2C[C@H](O)[C@@H](CO)O2)c(F)cc1F | McIntyre | cytopathic effect | >400 µg/mL |
| O=C1C=CN(COCCO)S(=O)(=O)N1COCCO | F |  | >400 µg/mL |
| O=c1[nH]c(=O)n([C@@H]2C[C@H](CO)C[C@H]2CO)cc1I | KOS |  | >100 µg/mL |
| CC=NC(=N)c1nc(-c2cccc(OC)c2)n(COCCO)n1 | VMW 1837 | cytopathic effect | >400 µg/mL |
| Nc1ccn(CC[C@H](O)CCO)c(=O)n1 | McIntyre | cytopathic effect | >400 µg/mL |
| [N-]=[N+]=NC(CBr)c1cc([C@H]2C[C@H](O)[C@@H](CO)O2)c(F)cc1F | VMW1837 (TK-) | cytopathic effect | >400 µg/mL |
| CC1(CO)CCC(Cn2cnc3c(=O)[nH]cnc32)C1(C)C | KOS | cytopathic effect | >200 µg/mL |
| CC(C)(C)c1cn([C@H]2C[C@H](O)[C@@H](CO)S2)c(=O)[nH]c1=O | KOS McIntyre F | cytopathic effect | 0.73 µM |
| OC[C@H]1O[C@@H](c2ccccc2)[C@H](O)[C@@H]1O | KOS | cytopathic effect | >400 µg/mL |
| OC[C@H]1O[C@@H](c2cc(C(O)CI)c(F)cc2F)C[C@@H]1O | TK-deficient acyclovir-resistant | cytopathic effect | >16 µg/mL |
| CCOC(=O)C1=CN(COCCO)S(=O)(=O)NC1=O | VMW1837 (TK-) |  | >400 µg/mL |
| C=C(N=CC)c1nc(-c2cccc(OC)c2)n(C2O[C@H](CO)[C@@H](O)[C@H](O)[C@H]2O)n1 | VMW 1837 | cytopathic effect | 300 µg/mL |
| O=c1[nH]c(=O)n([C@H]2C[C@H](O)[C@@H](CO)S2)cc1C1CCCCC1 | KOS McIntyre F | cytopathic effect | 7 µM |
| CC1(C)[C@@H](CO)CC[C@@]1(C)Cn1cc(I)c(=O)[nH]c1=O | KOS | cytopathic effect | >400 µg/mL |
| NC1=CC(N)=NS(=O)(=O)N1COCCO | McIntyre |  | >400 µg/mL |
| O=c1[nH]c(=O)n(C2C[C@H](CO)[C@@H](CO)C2)cc1I | KOS (TK-) |  | >100 µg/mL |
| CC=NC(=N)c1nc(-c2cccc(OC)c2)n(Cc2ccccc2)n1 | KOS | cytopathic effect | >10 µg/mL |
| OC[C@H]1CC(n2cnc3c(NC4CC4)ncnc32)C[C@@H]1CO | KOS (TK-) |  | >100 µg/mL |
| Cc1cc([C@H]2C[C@H](O)[C@@H](CO)O2)c(F)cc1F | McIntyre | cytopathic effect | >400 µg/mL |
| CSc1ncnc2c1cnn2Cc1cn(CCCCO)nn1 | VWM1837 |  | >400 µg/mL |
| COc1cc(F)c([C@H]2C[C@H](O)[C@@H](CO)O2)cc1[N+](=O)[O-] | KOS/ACV-R | cytopathic effect | >400 µg/mL |
| CC1(CO)CCC(Cn2ccc(=O)[nH]c2=O)C1(C)C | TK-/B2006 | cytopathic effect | >400 µg/mL |
| CCCc1cn([C@H]2C[C@H](O)[C@@H](CO)O2)c(=O)[nH]c1=O | KOS McIntyre F | cytopathic effect | 5.4 µM |
| CC=NC(=N)c1nc(-c2ccccc2)n(COCCO)n1 | KOS | cytopathic effect | >40 µg/mL |
| CC1(C)[C@@H](CCO)C[C@H]1n1nnc2c(Cl)nc(N)nc21 | TK-/VMW 1837 | cytopathic effect | >100 µg/mL |
| CO[C@H](CO)[C@@H](O)CCn1cnc2c(N)ncnc21 | KOS | cytopathic effect | >400 µg/mL |

The last 5 rows once more:

CC1(CO)CCC(Cn2ccc(=O)[nH]c2=O)C1(C)C ; strain: TK-/B2006 ; method: cytopathic effect ; value: >400 µg/mL
CCCc1cn([C@H]2C[C@H](O)[C@@H](CO)O2)c(=O)[nH]c1=O ; strain: KOS McIntyre F ; method: cytopathic effect ; value: 5.4 µM
CC=NC(=N)c1nc(-c2ccccc2)n(COCCO)n1 ; strain: KOS ; method: cytopathic effect ; value: >40 µg/mL
CC1(C)[C@@H](CCO)C[C@H]1n1nnc2c(Cl)nc(N)nc21 ; strain: TK-/VMW 1837 ; method: cytopathic effect ; value: >100 µg/mL
CO[C@H](CO)[C@@H](O)CCn1cnc2c(N)ncnc21 ; strain: KOS ; method: cytopathic effect ; value: >400 µg/mL

Neighbouring rows are from separate reports. Blank or dashed fields: not listed here.